Measured values taken from patent US9625458B2, “Biosensor” (priority 2002, dated 2017).
Numbering of substitutions follows the chain as printed. In names and notes the source's numbering stands.

B1: dipeptide BP D450C JPW4039 (conjugate, UniProt P23847 29-535, looked up, variant D450C)
Dipeptide-binding protein: KTLVYCSEGSPEGFNPQLFTSGTTYDASSVPLYNRLVEFKIGTTEVIPGLAEKWEVSEDGKTYTFHLRKGVKWHDNKEFKPTRELNADDVVFSFDRQKNAQNPYHKVSGGSYEYFEGMGLPELISEVKKVDDNTVQFVLTRPEAPFLADLAMDFASILSKEYADAMMKAGTPEKLDLNPIGTGPFQLQQYQKDSRIRYKAFDGYWGTKPQIDTLVFSITPDASVRYAKLQKNECQVMPYPNPADIARMKQDKSINLMEMPGLNVGYLSYNVQKKPLDDVKVRQALTYAVNKDAIIKAVYQGAGVSAKNLIPPTMWGYNDDVQDYTYDPEKAKALLKEAGLEKGFSIDLWAMPVQRPYNPNARRMAEMIQADWAKVGVQAKIVTYEWGEYLKRAKDGEHQTVMMGWTGDNGDPDNFFATLFSCAASEQGSNYSKWCYKPFEDLIQPARATCDHNKRVELYKQAQVVMHDQAPALIIAHSTVFEPVRKEVKGYVVDPLGKHHFENVSIE
modifications: JPW4039 dye conjugate
B2: dipeptide BP D450C JPW4042 (conjugate, UniProt P23847 29-535, looked up, variant D450C)
Dipeptide-binding protein: B1 Dipeptide-binding protein
modifications: JPW4042 dye label
B3: arabinose BP L298C Acrylodan (conjugate, UniProt P02924 24-329, looked up, variant L298C)
L-arabinose-binding …: ENLKLGFLVKQPEEPWFQTEWKFADKAGKDLGFEVIKIAVPDGEKTLNAIDSLAASGAKGFVICTPDPKLGSAIVAKARGYDMKVIAVDDQFVNAKGKPMDTVPLVMMAATKIGERQGQELYKEMQKRGWDVKESAVMAITANELDTARRRTTGSMDALKAAGFPEKQIYQVPTKSNDIPGAFDAANSMLVQHPEVKHWLIVGMNDSTVLGGVRATEGQGFKAADIIGIGINGVDAVSELSKAQATGFYGSLLPSPDVHGYKSSEMLYNWVAKDVEPPKFTEVTDVVLITRDNFKEECEKKGLGGK
modifications: acrylodan label
B4: arabinose BP L298C NBD (conjugate, UniProt P02924 24-329, looked up, variant L298C)
L-arabinose-binding …: B3 L-arabinose-binding …
modifications: NBD label
B5: ribose BP A234C JPW4039 (conjugate, UniProt P02925 26-296, looked up, variant A234C)
Ribose import binding protein …: KDTIALVVSTLNNPFFVSLKDGAQKEADKLGYNLVVLDSQNNPAKELANVQDLTVRGTKILLINPTDSDAVGNAVKMANQANIPVITLDRQATKGEVVSHIASDNVLGGKIAGDYIAKKAGEGAKVIELQGIAGTSAARERGEGFQQAVAAHKFNVLASQPADFDRIKGLNVMQNLLTAHPDVQAVFAQNDEMALGALRALQTAGKSDVMVVGFDGTPDGEKAVNDGKLAATICQLPDQIGAKGVETADKVLKGEKVQAKYPVDLKLVVKQ
modifications: JPW4039 dye conjugate
B6: ribose BP A234C JPW4042 (conjugate, UniProt P02925 26-296, looked up, variant A234C)
Ribose import binding protein …: B5 Ribose import binding protein …
modifications: JPW4042 dye conjugate
B7: ribose BP A234C Acrylodan (conjugate, UniProt P02925 26-296, looked up, variant A234C)
Ribose import binding protein …: B5 Ribose import binding protein …
modifications: acrylodan label
B8: ribose BP A234C JPW4045 (conjugate, UniProt P02925 26-296, looked up, variant A234C)
Ribose import binding protein …: B5 Ribose import binding protein …
modifications: JPW4045 dye conjugate
B9: ribose BP A234C NBD (conjugate, UniProt P02925 26-296, looked up, variant A234C)
Ribose import binding protein …: B5 Ribose import binding protein …
modifications: NBD conjugate
B10: ribose BP D165C JPW4039 (conjugate, UniProt P02925 26-296, looked up, variant D165C)
Ribose import binding protein …: B5 Ribose import binding protein … with D165C, C234A
modifications: JPW4039 dye conjugate
B11: phosphate BP N223C Fluorescein (conjugate, UniProt P0AG82 26-346, looked up, variant N223C)
Phosphate-binding protein PstS: EASLTGAGATFPAPVYAKWADTYQKETGNKVNYQGIGSSGGVKQIIANTVDFGASDAPLSDEKLAQEGLFQFPTVIGGVVLAVNIPGLKSGELVLDGKTLGDIYLGKIKKWDDEAIAKLNPGLKLPSQNIAVVRRADGSGTSFVFTSYLAKVNEEWKNNVGTGSTVKWPIGLGGKGNDGIAAFVQRLPGAIGYVEYAYAKQNNLAYTKLISADGKPVSPTEECFANAAKGADWSKTFAQDLTNQKGEDAWPITSTTFILIHKDQKKPEQGTEVLKFFDWAYKTGAKQANDLDYASLPDSVVEQVRAAWKTNIKDSSGKPLY
modifications: fluorescein conjugate
B12: phosphate BP S39C JPW4042 (conjugate, UniProt P0AG82 26-346, looked up, variant S39C)
Phosphate-binding protein PstS: B11 Phosphate-binding protein PstS with S39C, C223N
modifications: JPW4042 dye label
B13: phosphate BP N226C JPW4042 (conjugate, UniProt P0AG82 26-346, looked up, variant N226C)
Phosphate-binding protein PstS: B11 Phosphate-binding protein PstS with C223N, N226C
modifications: JPW4042 dye conjugate
B14: phosphate BP S39C Acrylodan (conjugate, UniProt P0AG82 26-346, looked up, variant S39C)
Phosphate-binding protein PstS: B11 Phosphate-binding protein PstS with S39C, C223N
modifications: acrylodan conjugate
B15: phosphate BP S39C NBD (conjugate, UniProt P0AG82 26-346, looked up, variant S39C)
Phosphate-binding protein PstS: B11 Phosphate-binding protein PstS with S39C, C223N
modifications: NBD dye conjugate
B16: phosphate BP S39C JPW4045 (conjugate, UniProt P0AG82 26-346, looked up, variant S39C)
Phosphate-binding protein PstS: B11 Phosphate-binding protein PstS with S39C, C223N
modifications: JPW4045 dye conjugate
B17: phosphate BP S39C Fluorescein (conjugate, UniProt P0AG82 26-346, looked up, variant S39C)
Phosphate-binding protein PstS: B11 Phosphate-binding protein PstS with S39C, C223N
modifications: fluorescein conjugate
B18: phosphate BP N226C JPW4039 (conjugate, UniProt P0AG82 26-346, looked up, variant N226C)
Phosphate-binding protein PstS: B11 Phosphate-binding protein PstS with C223N, N226C
modifications: JPW4039 dye conjugate
B19: phosphate BP N226C JPW4045 (conjugate, UniProt P0AG82 26-346, looked up, variant N226C)
Phosphate-binding protein PstS: B11 Phosphate-binding protein PstS with C223N, N226C
modifications: JPW4045 dye conjugate
B20: phosphate BP S39C JPW4039 (conjugate, UniProt P0AG82 26-346, looked up, variant S39C)
Phosphate-binding protein PstS: B11 Phosphate-binding protein PstS with S39C, C223N
modifications: JPW4039 dye conjugate

Test: Fluorescence emission spectra without and with saturating ligand (wavelength shift, ΔIstd, ΔRmax)
Settings: emission maximum, absence of ligand
Outline: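 Emission spectra of bPBP–fluorophore conjugates (50–1000 nM protein, 25 °C, stirred) recorded without and with saturating ligand, using fluorophore-specific excitation. Wavelength shift, ΔIstd (intensity change at the mid-point wavelength) and ΔRmax (maximal ratiometric change over enumerated band pairs, 2 nm steps, 10 nm width) derived.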

Point of comparison: B4, “λmax,apo (nm)” value 543. Against it:
- B1 — higher, 602
- B2 — higher, 666
- B3 — lower, 499

Same assay, conditions: emission maximum, saturating ligand (ligand column)

Point of comparison: B2, “λmax,sat (nm)” value 664. Against it:
- B1 — lower, 604
- B3 — lower, 500
- B4 — lower, 539

Same assay, conditions: standard intensity change, unbound vs ligand-saturated

Point of comparison: B3, ΔIstd 0.07. Against it:
- B1 — higher, 0.20
- B2 — higher, 0.20
- B4 — higher, 0.45

Same assay, conditions: standard ratiometric change, unbound vs ligand-saturated

Point of comparison: B2, ΔRmax 1.08. Against it:
- B1 — lower, 0.29
- B3 — higher, 1.77
- B4 — lower, 0.41

Same assay, conditions: wavelength of emission maximum, absence of ligand

Point of comparison: B14, “λmax,apo (nm)” value 520. Against it:
- B5 — higher, 598
- B6 — higher, 668
- B7 — lower, 504
- B8 — higher, 636
- B9 — higher, 546
- B10 — higher, 589
- B11 — lower, 519
- B12 — higher, 623
- B13 — higher, 673
- B15 — higher, 558
- B16 — higher, 671
- B17 — lower, 519
- B18 — higher, 595
- B19 — higher, 675
- B20 — higher, 597

Same assay, conditions: wavelength of emission maximum, saturating ligand

Point of comparison: B16, “λmax,sat (nm)” value 647. Against it:
- B5 — lower, 600
- B6 — higher, 654
- B7 — lower, 522
- B8 — lower, 578
- B9 — lower, 548
- B10 — lower, 593
- B11 — lower, 519
- B12 — lower, 622
- B13 — higher, 651
- B14 — lower, 520
- B15 — lower, 559
- B17 — lower, 518
- B18 — lower, 571
- B19 — lower, 638
- B20 — lower, 551
